{"source": "ChEMBL document CHEMBL1789904", "about": "“Imaging of Plasmodium liver stages to drive next-generation antimalarial drug discovery” (Science, 2011)", "test_system": "Plasmodium yoelii", "assay": "NOVARTIS: Antimalarial liver stage activity measured as reduction in Plasmodium yoelii schizont area in HepG2-A16-CD81 cells by immuno-fluorescence, and median schizont size at 10uM compound concentration", "type": "functional, organism-based", "in_short": "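Host and parasite nuclei stained with Hoechst 33342, parasites with αPyHSP70 antibody; 25 images per well by high-content imaging; median parasite (schizont) area measured by automated image analysis, ~50 schizonts per experiment, two or more independent experiments.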", "note": "Some of the results follow. Results with a measured potency or affinity are listed apart."}
{"smiles": "CCCN(CCC)[P+](CC)(N(CCC)CCC)N(CCC)CCC", "values": [{"measurement": "Schizont size", "value": 31.2, "unit": "µM"}]}
